Pooled drug test results. Numbers come from NIAID ChemDB, via PubChem.

Shared fields: growth or infection tests; organism: HIV-1; endpoint: EC50

ECn: concentration that inhibits the pathogen or its effect by n%. Lines come from different laboratories, so protocols vary. Two numbers with a dash give a range or band. An empty or dashed field is not shown.

SMILES	strain	changes	cells	read by	result
Nc1nc(Cl)c2ncn([C@H]3CO[C@@H](CO)C3)c2n1	IIIB		ATH8	cytopathic effect	>100 µM
CCN1c2ncc(CCOc3ccc(-c4ccn(CC(=O)O)n4)cc3)cc2C(=O)N(C)c2cccnc21		RT-K103N Y181C	C8166	p24	>0.05 µM
Cc1ccc(-n2c(CO)nnc2SCC(=O)Nc2ccc(C)cc2Br)cc1	NL4-3	RT-K103N Y181C	HeLa + HeLa-JC53	luciferase	>10 µM
CNc1ncnc2c1ncn2[C@H]1CO[C@@H](CO)C1	IIIB		ATH8	cytopathic effect	>100 µM
CCN1c2ncc(CCOc3ccc(C(=O)NCC(CC)(CC)C(=O)O)cc3C)cc2C(=O)N(C)c2cccnc21		RT-K103N Y181C	C8166	p24	0.01–0.05 µM
COCCNC(=O)c1c(COC)nc(Nc2ccc(C#N)cc2)nc1Oc1c(C)cc(/C=C/C#N)cc1C	MDR		MT4 CMV-EGFP		0.661 µM
CC(C)[C@H](NC(=O)CCS(=O)(=O)c1ccncc1)C(=O)N[C@@H](Cc1ccccc1)[C@@H](O)[C@H](O)[C@H](Cc1ccccc1)NC(=O)[C@@H](NC(=O)CCS(=O)(=O)c1ccncc1)C(C)C	D34		PBLC	p24	1.2 µM
O=C(O)C(=O)/C=C(\O)c1cc(Cc2ccc(F)c(Cl)c2)cn(Cc2c(F)cccc2F)c1=O			MAGI		5.1 µM
CCCCCCCCCCS(=O)(=O)CCC(=O)N[C@H](C(=O)N[C@@H](Cc1ccccc1)[C@@H](O)[C@H](O)[C@H](Cc1ccccc1)NC(=O)[C@@H](NC(=O)CCS(=O)(=O)CCCCCCCCCC)C(C)C)C(C)C	D34		PBLC	p24	25 µM
COCc1nc(Nc2ccc(C#N)cc2)nc(Nc2c(C)cc(/C=C/C#N)cc2C)c1C(=O)NCC(OC)OC	L1001+K103N		MT4 CMV-EGFP		0.0417 µM
Cc1ccc2c(C)cc(C)c(-n3c(SCC(=O)Nc4ccc(S(N)(=O)=O)cc4Cl)nnc3C(F)(F)F)c2n1	NL4-3	RT-Y188L	HeLa + HeLa-JC53	luciferase	0.004 µM
CC(C)=CCOc1cc(NC(=S)c2ccsc2C)ccc1Cl	RF		CEM + CEM-SS	cytopathic effect / XTT	0.004 µM
COCc1nc(Nc2ccc(C#N)cc2)nc(Nc2c(C)cc(/C=C/C#N)cc2C)c1C(=O)NCCc1cccs1	K103N + Y181C		MT4 CMV-EGFP		0.0912 µM
OC[C@H]1C[C@@H](n2cnc3c(Cl)ncnc32)CO1	IIIB		ATH8	cytopathic effect	>100 µM
CCOC(C(=O)O)c1c(C)nc2ccc(Br)cc2c1-c1ccc(Cl)cc1			C8166	luciferase / reporter gene	<20 µM
O=C(O)C(=O)/C=C(\O)c1cc(Cc2ccccc2F)cn(Cc2cccc(F)c2F)c1=O			MAGI		0.8 µM
CCCC(C(=O)O)c1c(C(C)C)nc2ccc(Br)cc2c1-c1ccc(Cl)cc1			C8166	luciferase / reporter gene	<20 µM
CCC(=O)c1ccc(F)c([C@@H]2C[C@@H]2NC(=O)Nc2ccc(C#N)cn2)c1O	LAI	NNRTI-resistant (RT V108I)	TZM-bl	β-galactosidase / luminescence	0.00089 µM
Cc1nc2ccc(Cl)cc2c(-c2ccc(N(C)C)cc2)c1C(OC(C)C)C(=O)O			C8166	luciferase / reporter gene	<20 µM
CCN1C[C@H](C)n2c(c(O)c3c(=O)n(Cc4ccc(F)c(Cl)c4)nc(C(=O)NC)c32)C1=O	NL4-3	G118R/E138K	PM1	RT activity	0.0153 µM
Nc1nc(=S)c2ncn([C@H]3CO[C@@H](CO)C3)c2[nH]1	IIIB		ATH8	cytopathic effect	>100 µM
COCc1nc(Nc2ccc(C#N)cc2)nc(Nc2c(C)cc(/C=C/C#N)cc2C)c1C(=O)NCc1ccncc1	IIIB		MT4 CMV-EGFP		0.00339 µM
CC(C)[C@H](NC(=O)[C@H](Cc1ccccc1)CS(=O)(=O)C(C)(C)C)C(=O)N[C@@H](Cc1ccccc1)[C@@H](O)[C@H](O)[C@H](Cc1ccccc1)NC(=O)[C@@H](NC(=O)[C@H](Cc1ccccc1)CS(=O)(=O)C(C)(C)C)C(C)C	D34		PBLC	p24	0.023 µM
Cc1cccc(Cn2cc(Cc3ccc(F)c(Cl)c3)cc(/C(O)=C/C(=O)C(=O)O)c2=O)c1			MAGI		2.2 µM
C[C@H]1[C@H](O)[C@@H](C)/C=C/C=C/C=C/C=C/C=C/C=C/C=C/[C@H](O[C@@H]2O[C@H](C)[C@@H](O)[C@H](N)[C@@H]2O)C[C@@H]2O[C@](O)(C[C@@H](O)C[C@@H](O)CC[C@H](O)[C@@H](O)C[C@@H](O)CC(=O)O[C@H]1C)C[C@H](O)[C@H]2C(=O)O	MDR1385 Primary isolate X4 (SI)		PBMC	p24 / RT activity	1.6 µM
CCN1c2ncc(CCOc3ccc(-c4cccc(C(=O)O)c4)cc3C)cc2C(=O)N(C)c2cccnc21	IIIB		C8166	p24	<0.01 µM
COC[C@@H](c1ccc(C(F)(F)F)cc1)N1CCN(C2(C)CCN(C(=O)c3c(C)ncnc3C)CC2)C[C@@H]1C	S	M518V F519L V535M	PBMC		0.00071 µM
CCOC(C(=O)O)c1c(C)nc2ccc(Cl)cc2c1-c1ccc(OC)cc1			C8166	luciferase / reporter gene	<20 µM
COCc1nc(Nc2ccc(C#N)cc2)nc(Nc2c(C)cc(/C=C/C#N)cc2C)c1C(=O)NCc1ccccn1	K103N + Y181C		MT4 CMV-EGFP		0.017 µM
COc1ccnc2[nH]cc(C(=O)C(=O)N3C4CC3CN(C(=O)c3ccccc3)C4)c12	AC10		TZM-bl	luciferase	185 µM
CCC[C@H](NC(=O)[C@H](Cc1cccc2ccccc12)CS(=O)(=O)C(C)(C)C)C(=O)N[C@@H](Cc1ccccc1)[C@@H](O)[C@H](O)[C@H](Cc1ccccc1)NC(=O)[C@H](CCC)NC(=O)[C@H](Cc1cccc2ccccc12)CS(=O)(=O)C(C)(C)C	D34		PBLC	p24	0.004 µM
CCN1c2ncc(CCOc3ccc(C(=O)Nc4ccc(C(=O)O)cc4)cc3C)cc2C(=O)Nc2c(C)ccnc21	IIIB		C8166	p24	0.01–0.05 µM
Cc1nc2ccc(Cl)cc2c(-c2ccccc2O)c1C(OC(C)C)C(=O)O			C8166	luciferase / reporter gene	<20 µM
CCN1c2ncc(CCOc3ccc(NC(=O)CCC(=O)O)cc3C)cc2C(=O)N(C)c2cccnc21		RT-K103N Y181C	C8166	p24	>0.05 µM
CCc1ccc(-c2c(C(OC3CCCC3)C(=O)O)c(C)nc3ccc(Cl)cc23)cc1			C8166	luciferase / reporter gene	<20 µM
Cc1ccc(Cn2cc(Cc3ccc(F)cc3)cc(/C(O)=C/C(=O)C(=O)O)c2=O)cc1			MAGI		1.6 µM
Cc1ccc(-n2c(SCC(=O)Nc3ccc(C)cc3Br)nnc2C(C)C)cc1	NL4-3	RT-K103N Y181C	HeLa + HeLa-JC53	luciferase	>10 µM
COCc1nc(Nc2ccc(C#N)cc2)nc(Nc2c(C)cc(/C=C/C#N)cc2C)c1C(=O)N1CCN(C)CC1	L1001+K103N		MT4 CMV-EGFP		2.45 µM
Cc1nc2ccc(Cl)cc2c(-c2csc3ccccc23)c1C(OC(C)C)C(=O)O			C8166	luciferase / reporter gene	<20 µM
CC(C)=CCOc1cc(NC(=S)c2ccoc2C)ccc1Cl	UC38-RS (RT-Y181C)	RT-Y181C	CEM + CEM-SS	cytopathic effect / XTT	0.9 µM
CCN1c2ncc(CCOc3ccc(-c4ccc(C(C)C(=O)O)cc4)cc3C)cc2C(=O)N(C)c2cccnc21		RT-K103N Y181C	C8166	p24	0.01–0.05 µM
CC(C)[C@H](NC(=O)C(CN)Cc1ccccc1)C(=O)N[C@@H](Cc1ccccc1)[C@@H](O)[C@H](O)[C@H](Cc1ccccc1)NC(=O)[C@@H](NC(=O)C(CN)Cc1ccccc1)C(C)C	D34		PBLC	p24	>25 µM
OC[C@H]1C[C@@H](n2cnc3cncnc32)CO1	IIIB		ATH8	cytopathic effect	>100 µM
O=C(O)C(=O)/C=C(\O)c1cc(Cc2ccc(F)c(Cl)c2)cn(Cc2ccc(F)c(Cl)c2)c1=O			MAGI		2.4 µM
COCc1nc(Nc2ccc(C#N)cc2)nc(Nc2c(C)cc(/C=C/C#N)cc2C)c1C(=O)N1CCC(O)CC1	K103N + Y181C		MT4 CMV-EGFP		1.32 µM
C[C@]1(CO)O[C@@H](n2cnc3c(N)ncnc32)C[C@@H]1O		Q151M (delta)Env	HOS	luciferase	0.111 µM
CC(C)(C)S(=O)(=O)C[C@@H](Cc1cccc2ccccc12)C(=O)N[C@@H](CCC(=O)O)C(=O)N[C@@H](Cc1ccccc1)[C@@H](O)[C@H](O)[C@H](Cc1ccccc1)NC(=O)[C@H](CCC(=O)O)NC(=O)[C@H](Cc1cccc2ccccc12)CS(=O)(=O)C(C)(C)C	D34		PBLC	p24	>1 µM
COc1ccnc2[nH]cc(C(=O)C(=O)N3CCN(C(=O)c4ccccc4)C[C@H]3C)c12	PVO		TZM-bl	luciferase	0.002 µM
Cc1ccc(-n2c(C)nnc2SCC(=O)Nc2ccccc2-c2ccccc2)cc1	NL4-3		HeLa + HeLa-JC53	luciferase	>10 µM

Repeating the final 7 entries:

| SMILES | strain | changes | cells | read by | result |
|---|---|---|---|---|---|
| OC[C@H]1C[C@@H](n2cnc3cncnc32)CO1 | IIIB |  | ATH8 | cytopathic effect | >100 µM |
| O=C(O)C(=O)/C=C(\O)c1cc(Cc2ccc(F)c(Cl)c2)cn(Cc2ccc(F)c(Cl)c2)c1=O |  |  | MAGI |  | 2.4 µM |
| COCc1nc(Nc2ccc(C#N)cc2)nc(Nc2c(C)cc(/C=C/C#N)cc2C)c1C(=O)N1CCC(O)CC1 | K103N + Y181C |  | MT4 CMV-EGFP |  | 1.32 µM |
| C[C@]1(CO)O[C@@H](n2cnc3c(N)ncnc32)C[C@@H]1O |  | Q151M (delta)Env | HOS | luciferase | 0.111 µM |
| CC(C)(C)S(=O)(=O)C[C@@H](Cc1cccc2ccccc12)C(=O)N[C@@H](CCC(=O)O)C(=O)N[C@@H](Cc1ccccc1)[C@@H](O)[C@H](O)[C@H](Cc1ccccc1)NC(=O)[C@H](CCC(=O)O)NC(=O)[C@H](Cc1cccc2ccccc12)CS(=O)(=O)C(C)(C)C | D34 |  | PBLC | p24 | >1 µM |
| COc1ccnc2[nH]cc(C(=O)C(=O)N3CCN(C(=O)c4ccccc4)C[C@H]3C)c12 | PVO |  | TZM-bl | luciferase | 0.002 µM |
| Cc1ccc(-n2c(C)nnc2SCC(=O)Nc2ccccc2-c2ccccc2)cc1 | NL4-3 |  | HeLa + HeLa-JC53 | luciferase | >10 µM |